PubChem BioAssay AID504761 | Drosophila RNAi Screening Center | 2011

Test: 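Insect host genes that dengue virus relies on to spread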 (primary screen)
System: D.Mel-2 cells from Drosophila
Reagents: long dsRNA against Drosophila genes
Challenge: infection with dengue virus type 2; dose and infection time not stated
Measurement: 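Per well on two replicate plates, imaging gave the percent of cells positive for viral envelope protein, ranked by infection, and a nuclear count of cells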
Direction: infection score: higher = more virus-infected cells; cell count: higher = more cells in the well
Call rule: 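Very low infection ranking in both replicate wells (chance probability at most 0.065), then a retest showing infection dropped 1.5-fold or more at p below 0.05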
Meaning of the calls: active = confirmed: knock-down lowers infection; inactive = not picked or not confirmed
The screen tested about 22,000 reagents; below is an unselected part of those with a known target gene and a result. In the full data, 116 (0.52%) were called active. 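Calls depend on retest data that are not deposited; infection was ranked per plate without normalising between plates; the unit of the infection score is not given.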 Raw values vary from plate to plate and are shown uncorrected. Names joined by + are all predicted targets of the reagent. Not given: the amount of reagent, the time to read-out.

| Gene | amplicon | infection score, replicate 1 | infection score, replicate 2 | cell count, replicate 1 | cell count, replicate 2 | Call |
| --- | --- | --- | --- | --- | --- | --- |
| CG11815 | DRSC08209 | 2.33 | 2.67 | 5782 | 6699 | inactive |
| CG11815 | DRSC27752 | 31.5 | 12 | 5355 | 5687 | inactive |
| Naa40 | DRSC16265 | 19 | 0.25 | 2271 | 403 | inactive |
| CG42750 | DRSC03019 | – | – | 481 | 517 | inactive |
| CG42750 | DRSC03024 | 11.8 | 5.33 | 6315 | 2891 | inactive |
| CG42750 | DRSC21414 | 1.67 | 0.73 | 6220 | 6406 | inactive |
| CG42750 | DRSC23218 | 3.19 | 5.16 | 6529 | 6730 | inactive |
| CG42750 | DRSC28148 | 27.1 | 15.2 | 6144 | 6689 | inactive |
| CG42750 | DRSC28791 | 4.04 | 5.55 | 5573 | 4882 | inactive |
| Vha100-5 | DRSC02175 | 13.4 | 19.7 | 6060 | 1787 | inactive |
| Vha100-5 | DRSC26439 | 3.91 | 0.86 | 5902 | 6745 | inactive |
| Ir48a | DRSC05301 | 0.84 | 2.15 | 5986 | 5215 | inactive |
| CG5071 | DRSC15710 | 15.4 | 8.42 | 6566 | 2162 | inactive |
| CG5071 | DRSC22570 | 5.44 | 13.1 | 6366 | 5680 | inactive |
| CG5071 | DRSC24514 | 3.34 | 3.17 | 6195 | 6055 | inactive |
| MagR | DRSC20092 | 31.2 | 15.2 | 3967 | 5879 | inactive |
| CG42506 (retired record) + CG43759 | DRSC19464 | 12.6 | 1.28 | 6573 | 6580 | inactive |
| CG42506 (retired record) + CG43759 | DRSC19543 | 6.68 | 1.59 | 5704 | 5207 | inactive |
| CG42506 (retired record) + CG43759 | DRSC26393 | 2.62 | 2.1 | 6028 | 5917 | inactive |
| Oatp33Eb | DRSC02955 | 8.27 | 3.92 | 6098 | 6022 | inactive |
| CG5446 | DRSC02862 | 5.13 | 3.54 | 6296 | 6694 | inactive |
| Cubn | DRSC18256 | 3.11 | 3.54 | 6941 | 6972 | inactive |
| Cubn | DRSC29380 | 20.9 | 16.4 | 4161 | 5225 | inactive |
| CG14397 | DRSC02381 | 1.86 | 10.9 | 6224 | 5362 | inactive |
| CG30022 | DRSC22405 | 1.25 | 3.46 | 6236 | 6594 | inactive |
| Uros2 | DRSC16505 | 5.69 | 5.18 | 5655 | 6761 | inactive |
| CG13933 | DRSC08402 | 11.5 | 18 | 5966 | 5531 | inactive |
| nord | DRSC04210 | 9.59 | 25.2 | 6601 | 4707 | inactive |
| nord | DRSC04361 | 7.07 | 7 | 6250 | 5782 | inactive |
| Klp3A | DRSC18676 | – | 2.31 | 103 | 6705 | inactive |
| Klp3A | DRSC21625 | 5.33 | 7.46 | 5811 | 5900 | inactive |
| CG9806 | DRSC18444 | 6.61 | 1.67 | 6232 | 6584 | inactive |
| CG9806 | DRSC27417 | 11.2 | 10.7 | 5843 | 6318 | inactive |
| CG15153 | DRSC02454 | 12 | 2.59 | 6108 | 6676 | inactive |
| CG15153 | DRSC26085 | 8.4 | 6.01 | 6311 | 6636 | inactive |
| CG14631 | DRSC17792 | 1.82 | 0.38 | 6223 | 6310 | inactive |
| CG14631 | DRSC17941 | 1.58 | 0.47 | 5954 | 6128 | inactive |
| l(2)05287 | DRSC02151 | 24.2 | 36.9 | 5624 | 4777 | inactive |
| l(2)05287 | DRSC02152 | 22 | 6.07 | 3832 | 4795 | inactive |
| l(2)05287 | DRSC26660 | 9.27 | 5.86 | 5736 | 6112 | inactive |
| CG13540 | DRSC04182 | 14.9 | 8.92 | 5320 | 5670 | inactive |
| ND-B17 | DRSC01981 | 10.7 | 0.58 | 4660 | 7078 | inactive |
| CG11035 | DRSC14287 | 4.61 | 3.98 | 6418 | 6437 | inactive |
| CG6184 | DRSC15986 | 9.13 | 11.9 | 6317 | 6009 | inactive |
| CG1909 | DRSC17150 | 2.72 | 2.89 | 6130 | 6447 | inactive |
| Mgat4a | DRSC09326 | 0.69 | 3.71 | 6543 | 6901 | inactive |
| Mgat4a | DRSC11070 | 2.5 | 1.73 | 6032 | 6139 | inactive |
| prel | DRSC07271 | 11.9 | 16.5 | 5900 | 6021 | inactive |
| Rint1 | DRSC11010 | 12.9 | 14.5 | 5294 | 5387 | inactive |
| Rint1 | DRSC27960 | 11.1 | 15 | 6270 | 5620 | inactive |
| Alg-2 | DRSC07799 | 3.71 | 2.45 | 5851 | 6278 | inactive |
| Vps13D | DRSC09818 | 1.79 | 2.91 | 6150 | 6671 | inactive |
| Vps13D | DRSC09819 | 0.33 | 3.32 | 6319 | 6242 | inactive |
| intr | DRSC14528 | 0.58 | 2.24 | 6009 | 6059 | inactive |
| CG42245 + MEP-1 | DRSC07993 | – | 1.98 | – | 6025 | inactive |
| CG42245 + MEP-1 | DRSC08274 | 3.7 | 10.8 | 6544 | 6726 | inactive |
| CG42245 + MEP-1 | DRSC21460 | 4.75 | 6.85 | 4820 | 4234 | inactive |
| CG42245 + MEP-1 | DRSC29362 | 3.95 | 6.73 | 885 | 5035 | inactive |
